According to article PMC12153317 (mBio, 2025):

Key:
[1] = target: full-length, membrane-anchored A/Aichi/02/1968(H3N2)(X-31) HA on 293F cells (Influenza A virus …, UniProt P03437); assay: flow cytometry on cells
[2] = target: H3 A/Aichi/02/1968(X31) full-length HA ectodomain (FLsE) trimer, His6-tagged (Influenza A virus …, UniProt P03437); assay: BLI

B1: S5V2-29 recombinant human IgG (antibody, V domains shown)
VH: QVQLQESGPGLVKPSETLSLTCTVSGGSVSSNIYYWSWIRQTPGKGLEWLGYFYHSGSSNYNPSLKSRVTISGDMSKNQFSLKLKSVTAADTAIYYCARGGVENLMLVAVIQEMWYFDLWGRGTLVTVSG
VL: DIQMTQTPSSLSASVGDRVTITCRASQSIGASLNWYQQKPGEAPKFLIYAASNLQSGVPSRFSGSGSGTDFTLTISSLQPEDFATYYCQQQGTFGQGTKLEIK
notes: copies: 2 + 2
B1: binds [1].

B2: HC19 recombinant human IgG (antibody, V domains shown)
VH: QVQLKESGPGLVAPSQSLSITCTVSGFLLISNGVHWVRQPPGKGLEWLGVIWAGGNTNYNSALMSRVSISKDNSKSQVFLKMKSLQTDDTAMYYCARDFYDYDVFYYAMDYWGQGTSVTVSS
VL: QAVVTQESALTTSPGETVTLTCRSSTGAVTTSNYANWVQEKPDHLFTGLIGGTNNRAPGVPARFSGSLIGDKAALTITGAQTEDEAIYFCALWYSNHWVFGGGTKLTVL
notes: copies: 2 + 2
B2: binds [1].

B3: S8V1-157 recombinant human IgG1 (antibody, V domains shown)
VH: EVQLVQSGAEVKKPGASVKVSCKVSGYRLTALSMHWVRQAPGKGLEWMGGFDPEEDETIYAQNFQGRVTLTEDTSTDTVYMELSSLRSEDTGVYYCATLMGANPFDYWGQGTLIIVSG
VL: not shown
notes: human IgG1; also called rIgG; source: 293F, transient transfection, purified (Protein A agarose); copies: 2 + 2
B3: binds [1].

B4: CR8020 Fab (Fab, V domains shown)
VH: QVQLQQSGAEVKTPGASVKVSCKASGYTFTSFGVSWIRQAPGQGLEWIGWISAYNGDTYYAQKFQARVTMTTDTSTTTAYMEMRSLRSDDTAVYYCAREPPLFYSSWSLDNWGQGTLVTVSS
VL: EIVMTQSPGTLSLSPGERATLSCRASQSVSMNYLAWFQQKPGQAPRLLIYGASRRATGIPDRISGSGSGTDFTLTISRLEPADFAVYYCQQYGTSPRTFGQGAKVEIK
notes: source: 293F, transient transfection, purified (TALON resin, Superdex 200)
B4: binds [2].
